Anti-infective test results gathered from many reports (values: NIAID ChemDB through PubChem).

All rows: cytotoxicity tests; read-out: CC50

Lines come from different laboratories, so protocols vary. An empty or dashed field is not shown. CCn: concentration that lowers growth or viability of the cells by n%. a–b is a range or a potency band.

compound | cell line | read by | value
OC[C@H]1O[C@@H](n2c(Br)nc3cc(Cl)c(Cl)cc32)[C@H](O)[C@@H]1O | SupT1 | - | 70 µM
CCOC(=O)CCCCCOc1cccc(CN(C(=O)c2ccc(-c3cc(OC)cc(OC)c3)cc2)C(C)C)c1 | RAJI | - | >20 µM
Nc1ncnc2c1ncn2C1CO[C@H](CO)[C@H]1O | NC-37 | - | 43.44 µg/mL
O=c1[nH]c(=O)n([C@@H]2O[C@H](CO)[C@@H](O)[C@@H]2O)cc1/C=C/Br | COS 1 | - | 422 µg/mL
COCC1(C)C2CC2[C@@]2(C)CC[C@@H](Br)[C@@](C)(O)CC[C@@H](C(C)(C)Br)OC(=O)c3ccc(O)c(c3)CC12 | DU4475 cells | MTT | 3.3 µM
Cc1ccc(C(=O)Nc2ccc(S(=O)(=O)O)c3cc(S(=O)(=O)O)cc(S(=O)(=O)O)c23)cc1NC(=O)c1cccc(NC(=O)Nc2cccc(C(=O)Nc3cc(C(=O)Nc4ccc(S(=O)(=O)O)c5cc(S(=O)(=O)O)cc(S(=O)(=O)O)c45)ccc3C)c2)c1 | HuT-78 | - | 55 µM
Nc1ccn([C@H]2CC[C@@H](CO)O2)c(=O)n1 | MKN-28 | - | 451.6 µg/mL
Nc1ncnc2c1ncn2C1CO[C@H](CO)[C@H]1CO | NC-37 | - | 16.44 µg/mL
CC(Sc1ncnc2c1cnn2CCCCO)C(N)=O | E6SM | - | >400 µg/mL
O[C@@H]1[C@H](O)[C@H](O)CO[C@H]1n1c(Br)nc2cc(Cl)c(Cl)cc21 | CBL | - | 111.8 µM
C=CCCN(Cc1cc(OC)cc(OC)c1)C(=O)CC(C)=O | HEK 293 | - | <7.5 µM
C[C@H](NC(=O)Nc1ccc(-c2csc(N)n2)cc1)c1ccccc1 | HS68 | - | <74 µM
CC(C)Nc1nc2cc(Cl)c(Cl)cc2n1[C@H]1O[C@@H](CO)[C@H](O)[C@@H]1O | SupT1 | neutral red | >108 µM
CCCC(CCC)NCCC(=O)Nc1ccc(-c2csc(N)n2)cc1 | HS68 | - | <9 µM
Nc1c(N=Cc2ccc(C(F)(F)F)cc2)cc2cccnc2c1Cl | BHK-21 | MTT | 25 µM
Nc1nc(-c2ccc(NC(=O)NCc3ccc(Cl)cc3)cc2)cs1 | HS68 | - | <1 µM
CCCN(Cc1cccc(OCCCCCC(=O)O)c1)C(=O)c1ccc(-c2ccc3c(c2)OCO3)cc1 | BJ | - | >20 µM
Nc1nc(-c2ccc(NC(=O)NCc3ccccc3F)cc2)cs1 | HS68 | - | <4 µM
CCSCCCCCCCCCCCC(=O)OC[C@@H]1C=C[C@H](n2cc(C)c(=O)[nH]c2=O)O1 | P4R5 | - | >200 µM
COc1ccc(-c2oc3cc(OC)cc(O)c3c(=O)c2O)cc1 | 1A2 | XTT | >795.4 µM
O=c1[nH]c(=O)n([C@H]2C[C@H](O)[C@@H](COP3(=O)OCc4c(ccc5ccccc45)O3)O2)cc1/C=C/Br | HELF | - | 54.3 µg/mL
Nc1ccn(C2CO[C@H](CO)[C@H]2CO)c(=O)n1 | NC-37 | - | >100 µg/mL
O=c1ccn([C@@]23CO[C@@H]2[C@H](O)[C@@H](CO)O3)c(=O)[nH]1 | Zluc | resazurin | >100 µM
Nc1nc(-c2ccc(NC(=O)CNCc3ccccn3)cc2)cs1 | HS68 | - | >84 µM
COc1cc(OC)cc(-c2ccc(C(=O)N(Cc3cccc(OCCCCCC(=O)OC(=O)O)c3)C(C)C)cc2)c1 | RAJI | - | >20 µM
CC(C)(O)[C@@H]1CC[C@@]2(C)CCC[C@@](C)(O)[C@@H]2C1 | 1A2 | XTT | 630.7 µM
CCCCCCCCCCCCCCCCCCOP(=O)(OCCCC)OP(=O)(O)OP(=O)(O)OP(=O)(O)OC[C@@H]1C=C[C@H](n2cc(C)c(=O)[nH]c2=O)O1 | CD4+ T-cell | MTT | 30 µM
NC(=O)CSc1ncnc2c1cnn2COCCO | E6SM | - | >400 µg/mL
Nc1nc2c(ncn2C2CO[C@H](CO)[C@H]2CO)c(=O)[nH]1 | NC-37 | - | 58.67 µg/mL
Nc1nc(-c2ccc(NC(=O)CN(Cc3ccccc3)C(=O)Cc3cccnc3)cc2)cs1 | HS68 | - | >50 µM
Cc1cc2nc3c4ccccc4n(CCN(C)C)c3nc2cc1C | HL | - | 10–30 µM
Nc1nc2c(ncn2[C@@H]2O[C@H](CO)[C@H]2CO)c(=O)[nH]1 | COS 1 | - | 66 µg/mL
CC(C)N(Cc1cccc(OCCCCCC(=O)OC(=O)O)c1)C(=O)c1ccc(-c2ccc3c(c2)OCCO3)cc1 | BJ | - | >20 µM
N=C(N)c1ccc(OCc2cccc(COc3ccc(C(=N)N)cc3)c2)cc1 | 3T3 | absorbance | >100 µM
Cc1cn([C@H]2C=C[C@@H](COC(=O)CCCCCCCCCCCN=[N+]=[N-])O2)c(=O)[nH]c1=O | P4R5 | - | >200 µM
CC1(C)CCC[C@]2(C)[C@H]3C[C@@H](C4=CCOC4=O)CC3=CC[C@@H]12 | ASK (rat glioma cells) | absorbance | 33.7 µM
O=[N+]([O-])c1ccc(N=NNc2ccc([N+](=O)[O-])cc2Cl)c(Cl)c1 | J774A.1 | neutral red | 46.59 µM
O=C1C=CC(=C(c2ccc(O)cc2)c2ccc(O)cc2)C=C1 | HuT-78 | - | 2.3 µM
CC(C)(O)[C@@H]1CC[C@@]2(C)CCC[C@](C)(O)[C@@H]2C1 | 1A2 | XTT | >520 µM
O=C(CNC(=O)c1ccc(-c2cscn2)cc1)NCc1ccccc1 | HS68 | - | <2.5 µM
CC(Sc1ncnc2c1cnn2COCCO)C(N)=O | E6SM | - | >400 µg/mL
CO[C@H]1C[C@H](n2cc(/C=C/Br)c(=O)[nH]c2=O)O[C@@H]1COP1(=O)OCc2cccc(C)c2O1 | HELF | - | 66.5 µg/mL
Nc1nc(-c2ccc(NC(=O)NCCc3ccc(F)cc3)cc2)cs1 | HS68 | - | <5 µM
CC(C)N(Cc1cccc(OCCCCCC(=O)OC(=O)O)c1)C(=O)c1ccc(-c2ccc3cc[nH]c3c2)cc1 | RAJI | - | >20 µM
O=c1[nH]c(=O)n([C@H]2C[C@H](O)[C@@H](COP3(=O)OCc4cccc(-c5ccccc5)c4O3)O2)cc1/C=C/Br | HELF | - | 35.3 µg/mL

For reference, 4 entries again:

compound	cell line	read by	value
O[C@@H]1[C@H](O)[C@H](O)CO[C@H]1n1c(Br)nc2cc(Cl)c(Cl)cc21	CBL	-	111.8 µM
CC1(C)CCC[C@]2(C)[C@H]3C[C@@H](C4=CCOC4=O)CC3=CC[C@@H]12	ASK (rat glioma cells)	absorbance	33.7 µM
Nc1ncnc2c1ncn2C1CO[C@H](CO)[C@H]1CO	NC-37	-	16.44 µg/mL
O=c1[nH]c(=O)n([C@H]2C[C@H](O)[C@@H](COP3(=O)OCc4cccc(-c5ccccc5)c4O3)O2)cc1/C=C/Br	HELF	-	35.3 µg/mL